Anti-infective test results gathered from many reports (values: NIAID ChemDB through PubChem).

Common to all: growth or infection tests; organism: HIV-1; read-out: fold resistance

Fold resistance: result on the changed form divided by that on wild type. Rows are shuffled and stem from different studies.

Cc1cc(S(N)(=O)=O)ccc1NC(=O)COc1ccc(Cl)cc1C(=O)c1cc(F)cc(C#N)c1 ; strain or isolate: HXB2 ; mutations: RT-P225H ; cells: HeLa + HELA CD4+ ; read by: β-galactosidase ; value: ~1
Cc1c(OCC2CCC2)c2cc(F)ccc2[nH]c1=O ; strain or isolate: NNRTI-resistant (RT K103N) ; mutations: RT-K103N ; cells: HeLa + HeLa-MAGI ; read by: β-galactosidase ; value: >3.28
CCc1c(Sc2cc(C)cc(C)c2)n(COCc2ccccc2)c(=S)[nH]c1=O ; strain or isolate: IIIB TIBO R82913-resistant (RT K103N) ; mutations: RT-K103N ; cells: CEM ; read by: syncytia ; value: 18.3
O=C(O[C@@H]1[C@H](OC(=O)c2ccccc2)[C@@H](CO)O[C@H]1n1cnc2c(N(C(=O)c3ccccc3)C(=O)c3ccccc3)ncnc21)c1ccccc1 ; strain or isolate: NL4-3 ; mutations: T215Y ; cells: HeLaP4 ; read by: β-galactosidase ; value: 0.41
Cc1cc(C#N)cc(C(=O)c2cc(Cl)ccc2OCC(=O)Nc2ccc(S(N)(=O)=O)nc2C)c1 ; strain or isolate: HXB2 (RT-K103N Y181C) Recombinant ; mutations: RT-K103N Y181C ; cells: HeLa + HELA CD4+ ; read by: β-galactosidase ; value: ~1
O=C1Nc2ccc(Cl)cc2[C@@](C#CC2CC2)(C(F)(F)F)O1 ; mutations: K103N/Y181C ; cells: MT-4 ; value: 35
Cc1cc(S(N)(=O)=O)ccc1NC(=O)COc1ccc(Cl)cc1C(=O)c1cc(F)cc(C(F)(F)F)c1 ; strain or isolate: HXB2 ; mutations: RT-K101E ; cells: HeLa + HELA CD4+ ; read by: β-galactosidase ; value: ~1
CC(C)=CCOc1cc(NC(=S)c2ccsc2C)ccc1Cl ; strain or isolate: UC781-R (RT-Y181C) ; mutations: RT-Y181C ; cells: CEM + CEM-SS ; read by: cytopathic effect / XTT ; value: 60
CCC(=O)c1ccc(F)c([C@@H]2C[C@@H]2NC(=O)Nc2ccc(C#N)cn2)c1O ; strain or isolate: LAI ; mutations: NNRTI-resistant (RT Y181C) ; cells: TZM-bl ; read by: β-galactosidase / luminescence ; value: 15.1
CCOCn1c(Sc2cc(C)cc(C)c2)c(CC)c(=O)[nH]c1=S ; strain or isolate: IIIB ; mutations: Nevirapine resistant (RT Y181C) ; cells: CEM ; read by: syncytia ; value: 23.3
CCCc1c(OC2CCCCC2)c2cc(Cl)ccc2[nH]c1=O ; strain or isolate: NNRTI-resistant (RT K103N Y181C) ; mutations: RT-K103N Y181C ; cells: HeLa + HeLa-MAGI ; read by: β-galactosidase ; value: >62.5
Cc1ccc(C2CC2)c(-c2cc(F)c3c(c2C)CCCO3)c1[C@H](OC1CC1)C(=O)O ; strain or isolate: NL4-3 ; mutations: INSTI-resistant (IN-E92Q) ; cells: MT-4 ; read by: luminescence ; value: 1
O=C1Nc2ccc(Cl)cc2[C@@](C#CC2CC2)(C(F)(F)F)N1 ; mutations: RT-K103N V108I ; value: 21.1
Cc1cc(S(N)(=O)=O)ccc1NC(=O)COc1ccc(Cl)cc1C(=O)c1cc(Cl)cc(C#N)c1 ; strain or isolate: HXB2 ; mutations: RT-K103N P225H ; cells: HeLa + HELA CD4+ ; read by: β-galactosidase ; value: ~1
CCOCn1c(Sc2ccccc2)c(CC)c(=O)[nH]c1=S ; strain or isolate: IIIB TIBO R82913-resistant (RT K103N) ; mutations: RT-K103N ; cells: CEM ; read by: syncytia ; value: 100
O=C1Nc2ccc(F)c(F)c2[C@@](/C=C/C2CC2)(C(F)(F)F)N1 ; mutations: RT-Y188L ; value: 60.5
Cc1cc2cn[nH]c2cc1NC(=O)COc1ccc(Cl)cc1C(=O)c1cccc(C#N)c1 ; strain or isolate: HXB2 ; mutations: RT-P225H ; cells: HeLa + HELA CD4+ ; read by: β-galactosidase ; value: ~1
Cc1cc(C)cc(Cc2c(C(C)C)c(=O)[nH]c(=O)n2COCCO)c1 ; strain or isolate: IIIB (TIBO 82150) (RT-L100I) ; mutations: RT-L100I ; cells: CEM ; read by: syncytia ; value: 4.71
Cc1cc(S(N)(=O)=O)ccc1NC(=O)COc1ccc(Cl)cc1C(=O)c1cc(F)cc(F)c1 ; strain or isolate: HXB2 ; mutations: RT-K103N P225H ; cells: HeLa + HELA CD4+ ; read by: β-galactosidase ; value: ~1
Cc1occc1C(=S)Nc1ccc(Cl)c(C(=O)OC(C)C)c1 ; strain or isolate: 4xAZT(RT-D67N K70R T215Y K219Q) ; mutations: RT-D67N K70R T215Y K219Q ; cells: CEM + CEM-SS ; read by: cytopathic effect / XTT ; value: 1
CCOCn1c(Cc2ccccc2)c(CC)c(=O)[nH]c1=O ; strain or isolate: IIIB TIBO R82913-resistant (RT K103N) ; mutations: RT-K103N ; cells: CEM ; read by: syncytia ; value: 18.1
CC(C)=CCOc1cc(NC(=S)c2ccoc2C)ccc1Cl ; strain or isolate: Costatolide-resistant (RT Y188H) ; mutations: RT-Y188H ; cells: CEM + CEM-SS ; read by: cytopathic effect / XTT ; value: 10
C[C@H]1CO[C@@H]2Cn3cc(C(=O)NCc4ccc(F)cc4F)c(=O)c(O)c3C(=O)N12 ; strain or isolate: NL4-3 ; mutations: G118R ; cells: CBMC ; read by: RT activity ; value: 8
Cc1occc1C(=S)Nc1ccc(Cl)c(C(=O)OCC2CC2)c1 ; strain or isolate: NL4-3 ; mutations: RT-K103N ; cells: CEM + CEM-SS ; read by: cytopathic effect / XTT ; value: 28
Cc1cc(NS(=O)(=O)CC2CCCCC2)c(C)c(C(OC(C)(C)C)C(=O)O)c1-c1ccc2c(c1)CCCO2 ; strain or isolate: NL4-3 ; mutations: H171Q ; cells: MT-4 ; read by: p24 / luminescence ; value: 2
C=CCOc1cc(NC(=S)c2ccoc2C)ccc1OC ; strain or isolate: CALO(RT-T139I) ; mutations: RT-T139I ; cells: CEM + CEM-SS ; read by: cytopathic effect / XTT ; value: 1.67
Cc1cc(OCCCS(N)(=O)=O)ccc1NC(=O)COc1ccc(Cl)cc1C(=O)c1cc(F)cc(C(F)(F)F)c1 ; strain or isolate: HXB2 ; mutations: RT-L100I ; cells: HeLa + HELA CD4+ ; read by: β-galactosidase ; value: ~1
C=CCO/N=C/c1cc(NC(=S)c2ccoc2C)ccc1Cl ; strain or isolate: NL4-3 ; mutations: RT-Y181C ; cells: CEM + CEM-SS ; read by: cytopathic effect / XTT ; value: 57.1
Cc1cc2[nH]cnc2cc1NC(=O)COc1ccc(Cl)cc1C(=O)c1cc(F)cc(C(F)(F)F)c1 ; strain or isolate: HXB2 ; mutations: RT-E138K ; cells: HeLa + HELA CD4+ ; read by: β-galactosidase ; value: ~1
CC=CCOc1cc(NC(=S)c2ccoc2C)ccc1OC ; strain or isolate: 4XAZT/Y181C (RT D67N K70R Y181C T215Y K219Q) ; mutations: RT-D67N K70R Y181C T215Y K219Q ; cells: CEM + CEM-SS ; read by: cytopathic effect / XTT ; value: 140
C/C=C/CSc1cc(NC(=S)c2ccsc2C)ccc1Cl ; strain or isolate: NL4-3 ; mutations: RT-V106I ; cells: CEM + CEM-SS ; read by: p24 ; value: 34
CC(C)c1c(Sc2ccccc2)n(COCc2ccccc2)c(=O)[nH]c1=O ; strain or isolate: IIIB ; mutations: RT-Y181C ; cells: CEM ; read by: syncytia ; value: 100
Cc1occc1C(=S)Nc1ccc(Cl)c(/C=N/OC(C)(C)C)c1 ; strain or isolate: 4XAZT/Y181C (RT D67N K70R Y181C T215Y K219Q) ; mutations: RT-D67N K70R Y181C T215Y K219Q ; cells: CEM + CEM-SS ; read by: cytopathic effect / XTT ; value: 2.5